Experimental data: article PMC3114948 (Virology, 2011)

Chains of the proteins cited; added tags and fusions are not shown.
UniProt P03468, whole entry, looked up: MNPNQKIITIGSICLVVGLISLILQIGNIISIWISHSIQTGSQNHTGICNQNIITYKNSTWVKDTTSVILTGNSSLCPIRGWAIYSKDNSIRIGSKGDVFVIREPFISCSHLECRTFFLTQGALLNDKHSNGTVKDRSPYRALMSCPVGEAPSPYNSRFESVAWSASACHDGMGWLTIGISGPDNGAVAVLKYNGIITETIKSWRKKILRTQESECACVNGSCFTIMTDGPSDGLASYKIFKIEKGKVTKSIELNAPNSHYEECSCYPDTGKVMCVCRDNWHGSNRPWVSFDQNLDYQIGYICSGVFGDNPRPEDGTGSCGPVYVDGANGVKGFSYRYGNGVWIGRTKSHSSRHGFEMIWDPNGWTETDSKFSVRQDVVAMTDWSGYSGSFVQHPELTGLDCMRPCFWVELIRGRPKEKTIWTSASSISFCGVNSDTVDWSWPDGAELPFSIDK

Molecular target: neuraminidase of A/PR8 (H1N1) (Influenza A virus, UniProt P03468)
Format: biochemical, human influenza A virus A/Puerto Rico/34/8
Conditions: read-out: IC50 (estimated from % inhibition)

Substance: 2-deoxy-2,3-dehydro-N-glycolylneuraminic acid [Neu5Gc2en]
- IC50: ~100 µM
